Values quoted from earlier work, collected in PMC8763392.

Sequences of proteins named here, by UniProt entry; tags and fusion partners are left off. Residues count along the entry.
UniProt P04756, 21-457: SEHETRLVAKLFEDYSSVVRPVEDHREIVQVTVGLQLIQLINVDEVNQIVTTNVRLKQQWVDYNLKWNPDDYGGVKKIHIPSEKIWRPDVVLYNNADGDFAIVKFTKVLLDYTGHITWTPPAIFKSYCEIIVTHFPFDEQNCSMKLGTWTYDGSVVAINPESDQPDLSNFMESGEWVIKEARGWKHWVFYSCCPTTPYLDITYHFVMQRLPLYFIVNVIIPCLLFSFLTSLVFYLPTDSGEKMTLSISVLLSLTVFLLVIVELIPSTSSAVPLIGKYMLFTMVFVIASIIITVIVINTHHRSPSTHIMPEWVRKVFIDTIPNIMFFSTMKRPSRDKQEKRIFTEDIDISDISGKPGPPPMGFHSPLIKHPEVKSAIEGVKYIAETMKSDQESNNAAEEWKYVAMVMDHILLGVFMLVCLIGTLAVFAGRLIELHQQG
UniProt P02708, 21-457: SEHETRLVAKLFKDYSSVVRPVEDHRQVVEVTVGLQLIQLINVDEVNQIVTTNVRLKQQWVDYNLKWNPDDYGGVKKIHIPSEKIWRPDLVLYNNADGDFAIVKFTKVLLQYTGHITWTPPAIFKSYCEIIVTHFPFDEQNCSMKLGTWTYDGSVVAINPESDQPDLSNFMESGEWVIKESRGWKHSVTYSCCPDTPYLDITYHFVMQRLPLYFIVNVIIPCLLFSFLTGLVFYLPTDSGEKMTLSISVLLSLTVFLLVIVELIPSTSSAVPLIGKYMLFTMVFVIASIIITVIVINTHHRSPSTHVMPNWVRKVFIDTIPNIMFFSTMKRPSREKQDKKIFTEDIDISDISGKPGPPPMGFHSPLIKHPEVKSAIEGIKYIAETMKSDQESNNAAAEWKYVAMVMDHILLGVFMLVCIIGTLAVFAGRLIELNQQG

Assays:
nAChR α1 (Mus musculus) = nAChR α1 (Mus musculus) (UniProt P04756); conditions: cited from earlier work
[1] = biological target: muscle-type nAChR (Homo sapiens) (UniProt P02708); conditions: cited from earlier work

α-bungarotoxin (from UniProt P60615)
Kd (nAChR α1 (Mus musculus)): 0.2 nM
Kd [1]: 0.27 nM
